A mixed list of measured activities; the numbers were collected in NIAID ChemDB.

Inhibition is in % at the dose shown (toxicity tests: loss of growth or viability). An empty or dashed field is not shown. ICn is the concentration giving n% inhibition. MIC bound comes from a single tested concentration. A number after MIC or MFC names an inhibition level or a share of isolates. Neighbouring rows are from separate reports.

| SMILES | strain | read-out | dose | kind | method | organism | protein | result |
|---|---|---|---|---|---|---|---|---|
| Cc1cccc(CNCCNC[C@]2(C)CCC[C@]3(C)c4ccc(C(C)C)cc4CC[C@@H]23)c1 |  | MIC |  | culture |  | Mycobacterium tuberculosis |  | 12.5 µM |
| Fc1ccc(NC(=S)SCc2ccc(Cl)c(Cl)c2)cc1 | H37Rv | MIC bound |  | culture | BACTEC | Mycobacterium tuberculosis |  | ≤128 µg/mL |
| COc1ccc(N2CCN(c3cncc(-c4ccc(C(N)=O)cc4)n3)CC2)cc1OC |  | IC50 |  | target |  | Cytomegalovirus | UL97 kinase | <1 µM |
| CC(C)(C)CC(C)(O)CN(CC(C)(O)CC(C)(C)C)C(=S)S | PZA-R | MIC |  | culture |  | Mycobacterium tuberculosis |  | 3.1 µg/mL |
| CC(CNCCC(c1ccccc1)c1ccccc1)NCCC1=CCCCC1 |  | MIC |  | culture |  | Mycobacterium tuberculosis |  | 12.5 µM |
| COc1ccc(N2CCN(c3cncc(-c4ccc(C(C)(C)C)cc4)n3)CC2)cc1OC |  | inhibition | 10 µM | target |  | Cytomegalovirus | UL97 kinase | >15% |
| Nc1ccc(Cc2ccc(N)cc2N)c(N)c1 | H37Rv | MIC |  | culture |  | Mycobacterium tuberculosis |  | 100 µg/mL |
| COc1ccccc1N1CCN(c2cncc(-c3ccc(C(N)=O)cc3)n2)CC1 |  | IC50 |  | target |  | Cytomegalovirus | UL97 kinase | <1 µM |
| CC1CN(C(=S)S)C(C)CN1C(=S)S | H37Rv | MIC bound |  | culture | resazurin | Mycobacterium tuberculosis |  | >6.25 µg/mL |
| CC12CCCCC1C1=C(CCCC1)C(=O)C2 | H37Rv | MIC |  | culture |  | Mycobacterium tuberculosis |  | >100 µg/mL |
| CCOc1ccc2ccccc2c1C(=O)Nc1nnc(NC2CCc3ccccc32)s1 |  | IC50 |  | target |  | Human cytomegalovirus | Polymerase | <25 µM |
| CCn1cc(C(=O)O)c(=O)c2cc(F)c(N3CCN(CN4C(=O)/C(=N\c5ncc(Cc6cc(OC)c(OC)c(OC)c6)c(N)n5)c5cc(Cl)ccc54)CC3)cc21 | H37Rv | MIC bound |  | culture | resazurin | Mycobacterium tuberculosis |  | >6.25 µg/mL |
| CCCCCCCCCCCCNC(=O)c1cccnc1 | H37Rv | MIC |  | culture |  | Mycobacterium tuberculosis |  | 100 µg/mL |
| CC(=O)OCc1cc(=O)n(C)c2c3c4c(cc12)c(C)cc(=O)n4CO3 | TAC-R | MIC |  | culture |  | Mycobacterium tuberculosis |  | 1.6 µg/mL |
| Clc1ccc(CCNCCNC2CCCCCCC2)c(Cl)c1 |  | MIC |  | culture |  | Mycobacterium tuberculosis |  | 50 µM |
| Nc1nc(N)c2nnsc2n1 | H37Rv | inhibition | 6.25 µg/mL | culture | resazurin | Mycobacterium tuberculosis |  | 10% |
| CCOc1ccc2ccccc2c1C(=O)Nc1nnc(NCCc2cnc[nH]2)s1 |  | IC50 |  | target |  | Human cytomegalovirus | Polymerase | <25 µM |
| C[n+]1ccn2cc(S(=O)(=O)[O-])ccc21 | H37Rv | MIC bound |  | culture | BACTEC | Mycobacterium tuberculosis |  | >12.5 µg/mL |
| CNc1cccc2c1C(=O)c1ccccc1C2=O | H37Rv | MIC |  | culture |  | Mycobacterium tuberculosis |  | >100 µg/mL |
| COc1ccc(CNCCNCCCCc2ccccc2)cc1OC |  | MIC |  | culture |  | Mycobacterium tuberculosis |  | 12.5 µM |
| COC(=O)C1(OC(C)=O)C(=O)NC2=C1C(=O)c1ccccc1C2=O | H37Rv | MIC bound |  | culture | resazurin | Mycobacterium tuberculosis |  | >6.25 µg/mL |
| Nc1nccc(Nc2ccccc2)n1 | H37Rv | MIC |  | culture |  | Mycobacterium tuberculosis |  | >100 µg/mL |
| OCc1ccccc1-c1cncc(N2CCN(c3ccc(F)cc3F)CC2)n1 |  | inhibition | 10 µM | target |  | Cytomegalovirus | UL97 kinase | >15% |
| COc1ccc(N=Nc2c(-c3c(OC)cc4occc4c3OC)[nH]c(=O)c(C#N)c2C)cc1 | H37Rv | inhibition | 6.25 µg/mL | culture | resazurin | Mycobacterium tuberculosis |  | -12% |
| O=C(Nc1nnc(NCCCN2CCCC2=O)s1)c1cc2ccccc2s1 |  | IC50 |  | target |  | Human cytomegalovirus | Polymerase | <25 µM |
| O=C1CCCN1CCCNCCNCCCc1ccccc1 |  | MIC |  | culture |  | Mycobacterium tuberculosis |  | 50 µM |
| c1ccc(CCCCc2ccccn2)cc1 | H37Rv | MIC |  | culture |  | Mycobacterium tuberculosis |  | >100 µg/mL |
| C/C(=N\NC(=O)CC(=O)Nc1ccc(C)cc1)c1cc2ccccc2oc1=O | H37Rv | inhibition | 12.5 µg/mL | culture | BACTEC | Mycobacterium tuberculosis |  | 7% |
| COC(=O)c1cc(-c2ccccc2)nc2cc3c(cc12)OCO3 | H37Rv | MIC |  | culture |  | Mycobacterium tuberculosis |  | >100 µg/mL |
| O=C1COCC(=O)OCCOCCOCCOCCO1 | H37Rv | MIC bound |  | culture | BACTEC | Mycobacterium tuberculosis |  | >12.5 µg/mL |
| N#Cc1ccc(C(=O)Nc2nnc(NCCc3c[nH]c4ccccc34)s2)cc1 |  | IC50 |  | target |  | Human cytomegalovirus | Polymerase | <25 µM |
| CSc1ccc(-c2cncc(N3CCN(c4ccccc4)CC3)n2)cc1 |  | inhibition | 1 µM | target |  | Cytomegalovirus | UL97 kinase | <50% |
| O=C(/C=C/c1ccccc1)Oc1ccccc1 | H37Rv | MIC |  | culture |  | Mycobacterium tuberculosis |  | >100 µg/mL |
| O=C(Nc1nnc(NCCCCc2ccccc2)s1)c1ccc(S(=O)(=O)F)cc1 |  | IC50 |  | target |  | Human cytomegalovirus | Polymerase | >25 µM |
| CCOC(=O)C1CC(C)CCC1=O | H37Rv | MIC |  | culture |  | Mycobacterium tuberculosis |  | >100 µg/mL |
| S=C(Nc1ccc(Cl)cc1)c1ccccn1 | H37Rv | MIC |  | culture | resazurin | Mycobacterium tuberculosis |  | 0.78 µg/mL |
| O=C(/C=C/c1ccccc1Cl)Nc1nnc(NCc2ccc3c(c2)OCO3)s1 |  | IC50 |  | target |  | Human cytomegalovirus | Polymerase | <25 µM |
| NC(N)=NC(N)=Nc1ccccc1-c1ccccc1.O | H37Rv | MIC |  | culture |  | Mycobacterium tuberculosis |  | 25 µg/mL |
| NC(CCC(=O)O)C(=O)NC(Cc1c[nH]c2ccccc12)C(=O)NC(CCC(=O)O)C(=O)O | H37Rv | inhibition | 12.5 µg/mL | culture | BACTEC | Mycobacterium tuberculosis |  | 2% |
| N#Cc1ccccc1N1CCN(c2cncc(-c3ccc(F)c(Cl)c3)n2)CC1 |  | IC50 |  | target |  | Cytomegalovirus | UL97 kinase | <10 µM |
| O=C(Nc1nnc(NCCCCc2ccccc2)s1)c1ccc2c(c1)C(=O)OC2=O |  | IC50 |  | target |  | Human cytomegalovirus | Polymerase | <25 µM |
| Fc1ccccc1CCNCCNCCCc1ccccc1 |  | MIC |  | culture |  | Mycobacterium tuberculosis |  | 25 µM |
| O=C(CC(=O)c1ccccc1)Nc1ccc(S(=O)(=O)Nc2ccc3[nH]c(=S)sc3c2)cc1 | H37Rv | MIC |  | culture |  | Mycobacterium tuberculosis |  | >100 µg/mL |
| O=C(Nc1nnc(NCc2ccncc2)s1)c1ccc2c(c1)C(=O)OC2=O |  | IC50 |  | target |  | Human cytomegalovirus | Polymerase | <25 µM |
| COc1ccc(N)cc1OC | H37Rv | MIC |  | culture |  | Mycobacterium tuberculosis |  | 25 µg/mL |
| CCOC(=O)/C=C1\SC(N2CCCCC2)C(=O)N1CC | H37Rv | MIC |  | culture | BACTEC | Mycobacterium tuberculosis |  | ≥12.5 µg/mL |
| Cc1cc(C)cc(-c2cncc(N3CCN(c4cnccn4)CC3)n2)c1 |  | inhibition | 10 µM | target |  | Cytomegalovirus | UL97 kinase | >15% |
| OC1(C2(O)CCCCC2)CCCCC1 | H37Rv | MIC |  | culture |  | Mycobacterium tuberculosis |  | >100 µg/mL |
| COC(=O)c1cc(N)cn1C | H37Rv | inhibition | 6.25 µg/mL | culture | resazurin | Mycobacterium tuberculosis |  | -14% |
| NC(=O)COc1ccc(Cl)cc1 | H37Rv | MIC |  | culture |  | Mycobacterium tuberculosis |  | >100 µg/mL |
| C=CCc1ccc(OC)c(OC)c1 | 2854 | MIC90 |  | culture | turbidity | Candida tropicalis |  | 345 µg/mL |
| CCN(CC)c1ccc2cc3ccc(=[N+](CC)CC)cc-3oc2c1.CCN(CC)c1ccc2cc3ccc(=[N+](CC)CC)cc-3oc2c1.[Cl-].[Cl-].[Cl-].[Cl-].[Cl][Fe+][Cl].[Cl][Fe+][Cl] | H37Rv | MIC bound |  | culture | BACTEC | Mycobacterium tuberculosis |  | >12.5 µg/mL |
| CN1C(=O)CCC1(O)c1ccccc1 | H37Rv | MIC |  | culture |  | Mycobacterium tuberculosis |  | >100 µg/mL |
| CC(C)c1ccc2c(c1)CC[C@H]1[C@](C)(CNCCNCc3ccc(C(F)(F)F)cc3)CCC[C@]21C |  | MIC |  | culture |  | Mycobacterium tuberculosis |  | 25 µM |
| CC(/C=N/Nc1ccc([N+](=O)[O-])cn1)=N\Nc1ccc([N+](=O)[O-])cn1 | H37Rv | MIC bound |  | culture | BACTEC | Mycobacterium tuberculosis |  | >12.5 µg/mL |
| CCC(C)OS(=O)(=O)O | H37Rv | MIC |  | culture |  | Mycobacterium tuberculosis |  | >100 µg/mL |
| Clc1ccc(CCNCCNCCC(c2ccccc2)c2ccccc2)c(Cl)c1 |  | MIC |  | culture |  | Mycobacterium tuberculosis |  | 12.5 µM |
| CCCCCCCCCCCNc1nnc(NC(=O)c2ccc(I)cc2)s1 |  | IC50 |  | target |  | Human cytomegalovirus | Polymerase | <25 µM |
| CSC(=S)N/N=C/c1ccc[nH]1 | H37Rv | MIC |  | culture | BACTEC | Mycobacterium tuberculosis |  | 16 µg/mL |
| O=[N+]([O-])c1ccc(S(=O)(=O)c2ccccc2)cc1 | H37Rv | MIC |  | culture |  | Mycobacterium tuberculosis |  | >100 µg/mL |
| CCCCCCCCCCCNCCNC1CCC(C)CC1 |  | MIC |  | culture |  | Mycobacterium tuberculosis |  | 25 µM |
| Cc1cccc(C(=O)N2CCN(c3cncc(-c4ccc5ccccc5c4)n3)CC2C)c1 |  | IC50 |  | target |  | Cytomegalovirus | UL97 kinase | <100 µM |
| CN(C(=O)CCC(=O)O)c1ccc(I)cc1 | H37Rv | MIC |  | culture |  | Mycobacterium tuberculosis |  | >100 µg/mL |
| Br.O=C1N=NC2NC=CN3C=CC=C1C23 | H37Rv | MIC bound |  | culture | BACTEC | Mycobacterium tuberculosis |  | >12.5 µg/mL |
| Brc1cccc2c1sc1ccccc12 | H37Rv | MIC |  | culture |  | Mycobacterium tuberculosis |  | 25 µg/mL |
| Fc1ccc(N2CCCCC2)c(NC(=S)c2ccncc2)c1 |  | inhibition | 10 µM | host protein | kinase activity |  | PKG1beta | 41% |
| CNP1(NC)=NP(N(C)C)(N(C)C)=NP(N(C)C)(N(C)C)=N1 | H37Rv | MIC |  | culture | BACTEC | Mycobacterium tuberculosis |  | ≥128 µg/mL |
| CCCCCCCCC(CCc1ccccc1)(C(=O)O)C(=O)O | H37Rv | MIC |  | culture |  | Mycobacterium tuberculosis |  | 25 µg/mL |